Source: PubChem BioAssay AID1259414 (Drosophila RNAi Screening Center, 2018)

Screen: 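Host factors increasing or decreasing Wolbachia levels in cultured fly cells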 (primary screen)
System: Drosophila JW18 cells infected with Wolbachia
Knock-down reagent: long dsRNA against Drosophila genes, 0.25 µg dsRNA per well of a 384-well plate
Time to read-out: 5 days
Treatment: cells persistently infected with Wolbachia before knock-down; no added drug
Read-out: 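Imaged fluorescence in situ signal for Wolbachia 23S rRNA per DAPI-counted host cell, given as a robust z-score within each plate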
Reading the numbers: Wolbachia per cell robust z: higher = more Wolbachia per host cell than the plate typical
Active means: 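Hit when robust z is 1.5 or more, or -1.5 or less, in at least two of three replicates; excludes dsRNAs with several or no targets, genes not expressed in JW18 and well A1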
The deposit covers about 24,000 reagents; shown is an unselected part of those that have a named target and a result. In the full data, about 1,210 (5%) got an active call. 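Inactive calls also include excluded dsRNAs with several or no targets, genes unexpressed in JW18, and well A1, regardless of score.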 Unmarked entries are inactive. Reagents against one gene are numbered here. A plus sign joins genes that one reagent is predicted to hit. No sequences are given here.

| gene | reagent no. | Wolbachia per cell robust z, rep 1 | Wolbachia per cell robust z, rep 2 | Wolbachia per cell robust z, rep 3 |
| --- | --- | --- | --- | --- |
| CG42260 | 1 | -4.82 | 0.948 | 1.12 |
| CG42260 | 2 | 0.104 | -0.166 | -0.026 |
| CG30075 | 1 | 0.93 | 1.23 | 0.565 |
| Ir21a + asRNA:CR43609 | 1 | -2.67 | -0.859 | 0.775 |
| Syn2 (Syntrophin-like 2) | 1 | -4.67 (active) | -0.67 | -2.27 |
| CG5493 + CG5327 | 1 | -0.495 | -0.823 | -2.19 |
| bdwf (bedwarfed) | 1 | 0.311 | -0.12 | -5.23 |
| CG8306 | 1 | 0.587 | 1.24 | 0.00455 |
| CG8306 | 2 | -1.37 | 1.04 | -1.77 |
| CG15170 | 1 | -0.248 | -0.355 | -0.452 |
| CG31109 | 1 | 0.124 | -0.0327 | -0.363 |
| CG3330 | 1 | 0.695 | -8.55 | 0.427 |
| Mob2 | 1 | -1.3 | 0.981 | 0.571 |
| Mob2 | 2 | 0.56 | -0.0139 | -1.16 |
| Mob2 | 3 | 1.07 | -0.755 | 0.456 |
| Mob2 | 4 | -0.159 | -0.655 | -2.51 |
| CG17349 | 1 | 1.34 | 0.434 | 0.79 |
| CG9775 | 1 | -2.27 | -0.129 | -0.535 |
| CG9775 | 2 | -2.06 | -1.03 | -0.941 |
| twin | 1 | 0.229 | 1.95 | -0.947 |
| twin | 2 | -5.46 | -0.744 | 1.02 |
| twin | 3 | 0.438 | 0.722 | -1.47 |
| twin | 4 | 0.146 | 0.312 | -0.896 |
| raptor | 1 | 0.937 | 1.63 | 0.691 |
| CG10031 | 1 | -0.0188 | -5.11 | -0.514 |
| krimp (krimper) | 1 | -0.785 | 0.365 | 0.435 |
| Mocs2B + Mocs2A | 1 | -2.12 | -0.238 | -0.812 |
| Mocs2B + Mocs2A | 2 | 0.396 | 0.0668 | -0.0773 |
| CG34203 | 1 | -1.68 | -1.58 | 0.299 |
| H2.0 (Homeodomain protein 2.0) | 1 | -0.237 | 1.51 | 0.68 |
| H2.0 (Homeodomain protein 2.0) | 2 | 0.9 | 0.823 | 1.07 |
| Acp26Ab (Accessory gland protein 26Ab) | 1 | -0.892 | -0.736 | 0.735 |
| Acp26Ab (Accessory gland protein 26Ab) | 2 | 0.674 | 0.0187 | 0.203 |
| Plap (Phospholipase A2 activator protein) | 1 | 0.374 | -0.558 | -0.265 |
| CG32354 | 1 | 0.586 | -6.45 | 0.42 |
| CG32354 | 2 | 0.483 | 1.07 | 0.74 |
| CG32354 | 3 | -1.2 | -0.334 | -0.397 |
| Osi5 (Osiris 5) | 1 | -0.155 | -0.732 | 1.14 |
| CG11883 | 1 | -0.524 | -0.569 | -0.0927 |
| CG11883 | 2 | 0.822 | -0.764 | -0.677 |
| muc (midline uncoordinated) | 1 | -0.878 | -0.94 | 0.325 |
| muc (midline uncoordinated) | 2 | -0.369 | -0.593 | -0.864 |
| muc (midline uncoordinated) | 3 | -0.516 | -0.403 | 0.0196 |
| CG15258 | 1 | -0.492 | -0.539 | -0.395 |
| GatC + PolG2 | 1 | 1.46 | -0.76 | 0.034 |
| CR31032 (pseudo) | 1 | 0.74 | 1.06 | 0.396 |
| CR31032 (pseudo) | 2 | 1.33 | 0.0401 | 0.994 |
| RpS18 (Ribosomal protein S18) | 1 | 1.92 | 0.551 | 0.0475 |
| Ugt36D1 (UDP-glycosyltransferase family 36 member D1) | 1 | 0.137 | 0.242 | 0.481 |
| CG18335 | 1 | -1.88 | -1.47 | -1.32 |
| CG18335 | 2 | 1.16 | 0.641 | -0.469 |
| CG12869 | 1 | 0.435 | 0.0505 | 1.07 |
| Tim17a1 | 1 | 1.44 | -3.84 | 0.108 |
| CG10376 | 1 | 1.08 | 0.259 | -1.05 |
| CG10376 | 2 | 0.658 | -0.954 | 0.0239 |
| MTPAP (mitochondrial poly(A) polymerase) | 1 | 0.625 | 0.308 | 0.262 |
| MTPAP (mitochondrial poly(A) polymerase) | 2 | 0.208 | -0.12 | 0.735 |
| BckdhB (Branched chain keto acid dehydrogenase E1 subunit beta) | 1 | -2.5 | 1.12 | -0.259 |

Copied from the list.
CG8306 #2, Wolbachia per cell robust z, rep 1 → -1.37
Entry for RpS18 (Ribosomal protein S18) under “Wolbachia per cell robust z, rep 1”: 1.92
For “Wolbachia per cell robust z, rep 1”, BckdhB (Branched chain keto acid dehydrogenase E1 subunit beta) has -2.5
For “Wolbachia per cell robust z, rep 2”, Tim17a1 reads -3.84
For “Wolbachia per cell robust z, rep 1”, CG9775 #1 reads -2.27
Result for Mob2 #2 under “Wolbachia per cell robust z, rep 2”: -0.0139

The list goes on:
| gene | reagent no. | Wolbachia per cell robust z, rep 1 | Wolbachia per cell robust z, rep 2 | Wolbachia per cell robust z, rep 3 |
| --- | --- | --- | --- | --- |
| asRNA:CR43477 + CG12256 | 1 | -0.304 | -0.261 | -0.449 |
| asRNA:CR43477 + CG12256 | 2 | 0.572 | -0.196 | 1.15 |
| CG9981 | 1 | 1.74 | -0.799 | 0.166 |
| CG33461 | 1 | -1.95 | -2.14 | -1.65 |
| CG33461 | 2 | 0.0602 | 0.463 | -1.11 |
| ZC3H3 | 1 | 3.27 (active) | 3.41 | 4.35 |
| ZC3H3 | 2 | -1.4 | -0.727 | -2.12 |
| ZC3H3 | 3 | 5.16 (active) | 3.03 | 6.8 |
| CG18628 | 1 | -0.256 | -0.417 | -0.19 |
| Acp62F (Accessory gland protein 62F) | 1 | -0.707 | 1.11 | -2.05 |
| Sema2a (Semaphorin 2a) | 1 | -0.372 (active) | -1.8 | -11.5 |
| Sema2a (Semaphorin 2a) | 2 | 0.857 | -2.25 | -0.754 |
| qjt (quijote) | 1 | 0.0302 | 0.724 | -1.71 |
| qjt (quijote) | 2 | 0.627 | 1.32 | 0.198 |
| DNAlig4 (DNA ligase 4) | 1 | -1.08 | -0.176 | -3.52 |
| CG17977 | 1 | -1.58 (active) | 0.638 | -5.59 |
| Pdss2 (Decaprenyl diphosphate synthase subunit 2) | 1 | 0.335 | -6.26 | -0.278 |
| Mpp6 (M-phase phosphoprotein 6) | 1 | 1.16 | 1.42 | 1.04 |
| Mpp6 (M-phase phosphoprotein 6) | 2 | -0.0761 | -0.414 | 0.0782 |
| CG42450 | 1 | -4.04 | -1.36 | -1.49 |
| CG42450 | 2 | -3.09 | 0.452 | -1.06 |
| Cad86C (Cadherin 86C) | 1 | 0.0394 | -0.126 | -0.569 |
| Cad86C (Cadherin 86C) | 2 | 0.653 | 0.131 | 1.1 |
| Cad86C (Cadherin 86C) | 3 | -1.5 (active) | -1.42 | -1.99 |
| Cad86C (Cadherin 86C) | 4 | 0.559 | 0.0216 | 0.231 |
| Mkp3 (Mitogen-activated protein kinase phosphatase 3) | 1 | 0.893 | 0.5 | 0.589 |
| Mkp3 (Mitogen-activated protein kinase phosphatase 3) | 2 | 0.117 | -0.821 | -6.83 |
| Osi13 (Osiris 13) | 1 | -0.176 | 0.48 | 0.786 |
| CG1631 | 1 | -0.406 | -1.14 | -1.74 |
